PubChem BioAssay AID624099 – ICCB-Longwood – 2012

Screen: 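Host factors E2 relies on to silence an HPV18 LCR reporter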 (primary screen)
System: human C33A cervical carcinoma cells (HPV-negative) stably expressing BPV1 E2 and an HPV18 LCR luciferase reporter
Reagent: siRNA pool against human genes, 40 nM
Timing: 72 h
Read-out: 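HPV18 LCR reporter light per well, converted to plate-wise z-scores that exclude control wells, and averaged over triplicate plates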
Reading the numbers: mean z-score and z-score: higher = stronger reporter signal, weaker E2 silencing
Rule for the call: 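Mean z ≥ 2 together with z ≥ 2 in two or more of the three replicates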
This is one part, drawn at random, of about 21,000 reagents tested. Over the whole deposit, 497 (2.4%) are marked active. 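Higher z means weaker E2 silencing; only reporter increases were scored, and knock-downs that hurt cell survival may mask genuine repressor factors.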 Entries without a mark were called inactive. The numbers tell different reagents against one gene apart. Reagent sequences are not shown.

| gene symbol | reagent no. | mean z-score | z-score, replicate A | z-score, replicate B | z-score, replicate C |
| --- | --- | --- | --- | --- | --- |
| TMPRSS3 (transmembrane serine protease 3) | 1 | -0.06 | 0.11 | -0.2 | -0.08 |
| POLK (DNA polymerase kappa) | 1 | -0.27 | 0.1 | -0.53 | -0.39 |
| LOC389846 (retired record) | 1 | 0.55 | 0.71 | 0.23 | 0.71 |
| KLHL34 (kelch like family member 34) | 1 | -0.25 | -0.13 | -0.28 | -0.34 |
| CTNND1 (catenin delta 1) | 1 | 1.48 | 1.68 | 1.45 | 1.32 |
| CDYL (chromodomain Y like) | 1 | -0.33 | -0.17 | -0.36 | -0.46 |
| PREX1 | 1 | -1.16 | -0.61 | -1.36 | -1.53 |
| CASS4 (Cas scaffold protein family member 4) | 1 | 0.58 | 0.69 | 0.77 | 0.29 |
| CELSR3 (cadherin EGF LAG seven-pass G-type receptor 3) | 1 | 1.44 | 1.31 | 1.64 | 1.37 |
| ADAT1 (adenosine deaminase tRNA specific 1) | 1 | -0.41 | -0.68 | -0.4 | -0.15 |
| NFIC (nuclear factor I C) | 1 | 0.71 | 0.4 | 0.93 | 0.81 |
| BHLHE22-AS1 (BHLHE22 antisense RNA 1) | 1 | 0.52 | 0.68 | 0.37 | 0.5 |
| LOC388496 (retired record) | 1 | -0.17 | 0.11 | -0.1 | -0.51 |
| RBM43 (RNA binding motif protein 43) | 1 | 0.17 | 0.05 | 0.43 | 0.03 |
| NDUFAF6 (NADH:ubiquinone oxidoreductase complex assembly factor 6) | 1 | -1.37 | -0.71 | -1.6 | -1.8 |
| ANOS1 (anosmin 1) | 1 | 2.01 (active) | 1.77 | 2.24 | 2.03 |
| HEATR4 (HEAT repeat containing 4) | 1 | -1.29 | -1.39 | -1.35 | -1.13 |
| GALP (galanin like peptide) | 1 | 0.32 | 0.61 | 0.22 | 0.13 |
| ZDHHC8 (zDHHC palmitoyltransferase 8) | 1 | 1.38 | 1.99 | 1.32 | 0.84 |
| TRAF3IP3 (TRAF3 interacting protein 3) | 1 | 0.11 | -0.31 | 0 | 0.63 |
| CD46 (CD46 molecule) | 1 | -0.69 | -0.74 | -0.63 | -0.69 |
| TMEM59 (transmembrane protein 59) | 1 | 0.4 | 0.33 | 0.6 | 0.27 |
| PIAS1 (protein inhibitor of activated STAT 1) | 1 | 0.66 | 0.53 | 0.69 | 0.76 |
| TAF11L2 (TATA-box binding protein associated factor 11 like 2) | 1 | -1.65 | -1.9 | -1.57 | -1.46 |
| CHST14 (carbohydrate sulfotransferase 14) | 1 | 0.37 | 0.33 | 0.38 | 0.39 |
| THYN1 (thymocyte nuclear protein 1) | 1 | 0.53 | 0.25 | 0.53 | 0.8 |
| SEMA4B (semaphorin 4B) | 1 | -0.8 | -0.09 | -1.28 | -1.04 |
| RIPOR3 (RIPOR family member 3) | 1 | -0.09 | 0.01 | -0.02 | -0.26 |
| RIPOR3 (RIPOR family member 3) | 2 | -0.39 | -0.54 | -0.5 | -0.13 |
| NSL1 (NSL1 component of MIS12 kinetochore complex) | 1 | 0.07 | 0.45 | -0.2 | -0.06 |
| TNFRSF13C (TNF receptor superfamily member 13C) | 1 | 0.31 | 0.25 | 0.39 | 0.28 |
| HIBCH (3-hydroxyisobutyryl-CoA hydrolase) | 1 | 1.14 | 1.14 | 0.89 | 1.4 |
| SLURP1 (secreted LY6/PLAUR domain containing 1) | 1 | -0.67 | -0.72 | -0.94 | -0.34 |
| RPS6KA4 (ribosomal protein S6 kinase A4) | 1 | 0.15 | -0.01 | 0.51 | -0.05 |
| POLR3E (RNA polymerase III subunit E) | 1 | 0.88 | 0.56 | 1.04 | 1.04 |
| UBA1 (ubiquitin like modifier activating enzyme 1) | 1 | 0.77 | 0.74 | 0.47 | 1.1 |
| EVPL (envoplakin) | 1 | -0.57 | -0.45 | -0.69 | -0.58 |
| VPS45 (vacuolar protein sorting 45 homolog) | 1 | -5.03 | -5.27 | -4.75 | -5.06 |
| LINC01312 (long independently transcribed non-coding RNA 1312) | 1 | 0.69 | 0.78 | 0.36 | 0.94 |
| CARMIL2 (capping protein regulator and myosin 1 linker 2) | 1 | -0.08 | -0.24 | -0.42 | 0.43 |
| GNB2 (G protein subunit beta 2) | 1 | 0.39 | 0.07 | 0.72 | 0.4 |
| ZBP1 (Z-DNA binding protein 1) | 1 | 0.54 | 0.26 | 0.54 | 0.84 |
| KRT10 (keratin 10) | 1 | 0.85 | 1.06 | 0.72 | 0.78 |
| RPL15P11 (ribosomal protein L15 pseudogene 11) | 1 | -0.22 | -0.76 | 0.04 | 0.07 |
| RPL15P11 (ribosomal protein L15 pseudogene 11) | 2 | -0.3 | -0.26 | -0.37 | -0.28 |
| LOC402663 (retired record) | 1 | 0.01 | -0.16 | 0.29 | -0.11 |
| LOC389055 (retired record) | 1 | -0.01 | 0 | -0.21 | 0.19 |
| SOX9 (SRY-box transcription factor 9) | 1 | 0.95 | 0.91 | 0.87 | 1.07 |
| SYCP1 (synaptonemal complex protein 1) | 1 | 1.47 | 1.62 | 1.36 | 1.43 |
| NIPSNAP3B (nipsnap homolog 3B) | 1 | 0.83 | 0.62 | 1.1 | 0.75 |
| H3-4 (H3.4 histone, cluster member) | 1 | -0.83 | -0.73 | -0.78 | -0.98 |
| H1-7 (H1.7 linker histone) | 1 | -1.25 | -1.26 | -1.3 | -1.19 |
| PRH2 (proline rich protein HaeIII subfamily 2) | 1 | 0.35 | 0.47 | 0.17 | 0.43 |
| OR7C2 (olfactory receptor family 7 subfamily C member 2) | 1 | 0.4 | 0.91 | 0.12 | 0.17 |
| THBS1 (thrombospondin 1) | 1 | 0.67 | 0.78 | 0.68 | 0.55 |
| OTUD7B (OTU deubiquitinase 7B) | 1 | -1.26 | -1.47 | -1.08 | -1.24 |
| TMEM129 (transmembrane protein 129, E3 ubiquitin ligase) | 1 | 0.67 | 0.74 | 0.77 | 0.49 |
| UBE2Q2P1 (UBE2Q2 pseudogene 1) | 1 | -0.46 | -0.57 | -0.66 | -0.16 |
| FAM222A (family with sequence similarity 222 member A) | 1 | 1.35 | 1.48 | 1.36 | 1.21 |
| TBXA2R (thromboxane A2 receptor) | 1 | -1.68 | -1.91 | -1.76 | -1.37 |
| ABL1 (ABL proto-oncogene 1, non-receptor tyrosine kinase) | 1 | 0.62 | 0.41 | 0.7 | 0.74 |
| OPTC (opticin) | 1 | -0.4 | -0.26 | -0.5 | -0.43 |
| SNX29P1 (sorting nexin 29 pseudogene 1) | 1 | -0.79 | -1.14 | -0.86 | -0.38 |
| CLEC7A (C-type lectin domain containing 7A) | 1 | 0.83 | 0.68 | 0.85 | 0.97 |
| AHCTF1 (AT-hook containing transcription factor 1) | 1 | 0.3 | 0.37 | 0.44 | 0.1 |
| EIF1B (eukaryotic translation initiation factor 1B) | 1 | 0.3 | 0.24 | 0.24 | 0.42 |
| PLEK2 (pleckstrin 2) | 1 | 1.59 | 1.51 | 1.46 | 1.79 |
| ZFHX3 (zinc finger homeobox 3) | 1 | 0.32 | 0.1 | 0.24 | 0.61 |
| ZFHX3 (zinc finger homeobox 3) | 2 | 0.8 | 0.77 | 0.7 | 0.94 |
| PIAS2 (protein inhibitor of activated STAT 2) | 1 | 0.62 | 0.69 | 0.47 | 0.7 |
| OR5M11 (olfactory receptor family 5 subfamily M member 11) | 1 | 0.71 | 0.22 | 1.06 | 0.86 |
| CFAP92 (cilia and flagella associated protein 92 (putative)) | 1 | 1.28 | 0.98 | 1.24 | 1.62 |
| SCGB1D4 (secretoglobin family 1D member 4) | 1 | 0.17 | -0.06 | 0.21 | 0.35 |
